Source: publication PMC7687367

Assays:
[1] = molecular target: RBD (residues 319-541) of Bat-CoV RaTG13 (Bat CoV RaTG13); assay: BLI
[2] = molecular target: RBD (residues 315-537) of Guangdong pangolin CoV (Guangdong pangolin CoV); assay: BLI

For “COVA1-16 IgG1 antibody (from UniProt P01857)”, the Kd [1] was 14 nM and the Kd [2] was 11 nM.
